Read-outs that look alike come from different tables or passages of the source.
Tested on: Alcaligenes faecalis DB05646 / Malassezia furfur cultures
Experiment: Metabolite profile by LC-MS: DB05646 single culture and co-culture with M. furfur
[1] = DB05646 single culture, Media 22, 48 hours

Row | Compound | Fold of change Coculture vs DB05646 (DB05646-M. furfur co-culture) | Fold of change Coculture vs M.furfur (DB05646-M. furfur co-culture) | Fold of change Coculture vs Media (DB05646-M. furfur co-culture) | Fold of change DB05646 vs Media [1] | Fold of change M.furfur vs Media (M. furfur single culture) | Fold of change Coculture vs DB05646 | Fold of change Coculture vs M.furfur | Fold of change Coculture vs Media | Fold of change DB05646 vs Media | Fold of change M.furfur vs Media
1 | O=c1cc[nH]c(=O)[nH]1 [Uracil] | 78.1 fold | 76.7 fold | 55.3 fold | 0.7 fold | 0.7 fold |  |  |  |  | 
2 | O=C(O)C1(O)C[C@@H](O)C(O)[C@H](O)C1 (stereo partly drawn) [(1S,3R,4s)-1,3,4,5-Tetrahydroxycyclohexanecarboxylic acid] | 0.9 fold | 16.3 fold | 52.5 fold | 61.3 fold | 3.2 fold |  |  |  |  | 
3 | CCN(CC)CCNC(=O)c1ccc(NC(C)=O)cc1 [N-Acetylprocainamide] | 0.1 fold | 11.8 fold | 13.1 fold | 178.8 fold | 1.1 fold |  |  |  |  | 
4 | CC[C@@H]1C(=O)OC[C@@H]1Cc1cncn1C [Pilocarpine] | 0.5 fold | 139.1 fold | 106.9 fold | 214.5 fold | 0.8 fold |  |  |  |  | 
5 | O=C(O)c1ccc(O)o1 [5-Hydroxy-2-furoic acid] | 2.2 fold | 2.6 fold | 5.1 fold | 2.3 fold | 2.0 fold |  |  |  |  | 
6 | C=C1CC1C[C@H](NC(=O)CC[C@H](N)C(=O)O)C(=O)O (stereo partly shown) [gamma-Glutamyl-3-(2-methylenecyclopropyl)alanine] |  |  |  |  |  | 0.1 fold | 8.4 fold | 18.6 fold | 198.2 fold | 2.2 fold
7 | O=c1ccn([C@@H]2O[C@H](CO)[C@@H](O)[C@H]2O)c(=O)[nH]1 [Uridine] | 0.1 fold | 0.1 fold | 1.9 fold | 32.0 fold | 26.1 fold |  |  |  |  | 
8 | Nc1c2c(O)nc(O)cc2nn1-c1ccccc1 [3-amino-2-phenyl-2H-pyrazolo[4,3-c]pyridine-4,6-diol] | 0.5 fold | 6.6 fold | 12.0 fold | 26.7 fold | 1.8 fold |  |  |  |  | 
9 | CC(=O)NCCCCNCCCN [N8-Acetylspermidine] | 0.2 fold | 0.8 fold | 3.1 fold | 16.8 fold | 4.0 fold |  |  |  |  | 
10 | CC(=O)N[C@@H](CC(=O)O)C(=O)O [N-Acetylaspartic acid] | 0.9 fold | 8.9 fold | 12.7 fold | 13.6 fold | 1.4 fold |  |  |  |  | 
11 | CC(=O)NCCCC[C@H](N)C(=O)O [N6-Acetyl-L-lysine] |  |  |  |  |  | 0.7 fold | 2.9 fold | 38.9 fold | 57.5 fold | 13.3 fold

Source: US12708649B2, “Compositions and methods for improving skin health and for the treatment and prevention of diseases, disorders and conditions associated with fungi and other pathogenic microbes” (priority 2020, dated 2026)
